The test system of the series is P. falciparum. The series can be described thus: Anti-Plasmodium activity: viability of P. falciparum cultures (pLDH enzyme assay). The conditions noted are these: ratio of activities: IC50 for CHO cells divided by IC50 for P. falciparum cultures. The series is classed as cell-based. The method, then: P. falciparum cultures were grown in O+ blood obtained by venipuncture of volunteers. Cultures of the laboratory line ItG were maintained by the method of Trager and Jensen (Trager, W.; Jensen, J. Science 1976, 193, 673) using RPM, 1640 supplemented with 10% human serum (a kind gift obtained under ethical consent from the Chemo Day Care department of the Princess Margaret Hospital, Toronto, Canada) and 50 μM hypoxanthine (RPMI-A). The effects of the test compounds on the viability of P. falciparum cultures were determined using a Lactate Dehydrogenase (LDH) enzyme assay specific to the enzyme found in Plasmodium falciparum (pLDH) (Prudhomme, J. G.; Sherman, I. W. J Immunol Methods 1999, 229(1-2), 169; Makler, M. T.; Ries, J. M.; Williams, J. A.; Bancroft, J. E.; Piper, R. C.; Gibbins, B. L.; Hinrichs, D. J. Am J Trop Med Hyg 1993, 48(6), 739). Briefly, compounds to be tested were dissolved in DMSO afford a solution having a concentration of 10 mg/mL. Two-fold serial dilutions were then produced in 50 μL of RPMI-A in a 96 well plate and then 50 μL of parasite culture (2% hematocrit, 2% parasitemia) were added to each well and the plates were then incubated at 37° C. in 95% N2, 3% CO2, and 2% O2 for 72 hr. The contents of the wells were then re-suspended using a multi-channel pipettor and a 15 μL sample was removed from each well and was added to 100 μL of pLDH enzyme assay mixture (Prudhomme, J. G.; Sherman, I. W. J Immunol Methods 1999, 229(1-2), 169). After 1 hr the absorbance of the wells at 650 nm was determined using a ThermoMax microplate reader (Molecular Devices, Sunnyvale, Calif.). The IC50 values of individual compounds were determined using a non-linear regression analysis of the data^19 using the computer program SigmaPlot (Jandel Scientific) and are reported in Table 1. The IC50 values represent the mean±standard error calculated from four independent determinations. To verify if the poor viability of the cultures was related to inhibited merozoite invasion, samples were taken from treated wells and the presence of extracellular merozoites was confirmed by microscopy.

In the case of `C[n+]1ccn(CCCOc2ccc(OCCCn3cc[n+](C)c3)cc2)c1` [QT123, 1,4-Bis[3-(3-methylimidazolium-1-yl)propoxy]benzene diiodide], the “IC50 CHO/IC50 P. falciparum” value was 2511.
As to `Brc1ccc(C[n+]2ccn(Cc3ccccc3)c2)cc1` [QT75, 1-Benzyl-3-(4-bromobenzyl)imidazolium bromide], the “IC50 CHO/IC50 P. falciparum” value worked out at 167.1.
As to `C[n+]1ccn(CCCCCCCCCCCCn2cc[n+](C)c2)c1` [QT89, 1,12-Bis-(3-methylimidazolium-1-yl)dodecane diiodide], the “IC50 CHO/IC50 P. falciparum” value was 2888.9.
Turning to `O=[N+]([O-])c1ccc(Cn2cc[n+](Cc3ccc([N+](=O)[O-])cc3)c2)cc1` [QT85, 1,3-Bis-(4-nitrobenzyl)imidazolium bromide], the “IC50 CHO/IC50 P. falciparum” value came to 25.2.
The result for `Clc1ccc(Cn2cc[n+](Cc3ccc(Cl)cc3)c2)cc1` [QT80, 1,3-Bis-(4-chlorobenzyl)imidazolium chloride] reads 11.7.
Regarding `C[n+]1ccn(CCCCCCCCCCCCCCCn2cc[n+](C)c2)c1` [QT101, 1,15-Bis-(3-methylimidazolium-1-yl)pentadecane diiodide], the “IC50 CHO/IC50 P. falciparum” value is recorded as 600.
In the case of `Brc1cccc(Cn2cc[n+](Cc3cccc(Br)c3)c2)c1` [QT83, 1,3-Bis-(3-bromobenzyl)imidazolium bromide], the “IC50 CHO/IC50 P. falciparum” value is listed as 125.7.
With `CCC[n+]1ccn(CCCCCCCCCCCCn2cc[n+](CCC)c2)c1` [QT119, 1,12-Bis(3-propylimidazolium-1-yl)dodecane diiodide], the “IC50 CHO/IC50 P. falciparum” value is 97500.
The result for `C[n+]1ccn(CCCCCCCCCCCCCCn2cc[n+](C)c2)c1` [QT107, 1,14-Bis-(3-methylimidazolium-1-yl)tetradecane diiodide] reads 3438; that for `C[n+]1ccn(-c2ccc(-n3cc[n+](C)c3)cc2)c1` [QT114, 1,4-Bis-(3-methylimidazolium-1-yl)benzene diiodide], 28.3.
Take `C[n+]1ccn(CCCCCCCCCCCn2cc[n+](C)c2)c1` [QT118, 1,11-Bis-(3-methylimidazolium-1-yl)undecane diiodide]: the “IC50 CHO/IC50 P. falciparum” value was 6885.
For `Clc1ccccc1Cn1cc[n+](Cc2ccccc2Cl)c1` [QT90, 1,3-Bis-(2-chlorobenzyl)imidazolium bromide], the “IC50 CHO/IC50 P. falciparum” value is 55.0.
In the case of `C[n+]1ccn(Cc2ccc(-c3ccc(Cn4cc[n+](C)c4)cc3)cc2)c1` [QT113, 4,4′-Bis-(3-methylimidazolium-1-yl-methyl)biphenyl diiodide], the “IC50 CHO/IC50 P. falciparum” value is on record as 1042.
In the case of `Brc1ccccc1Cn1cc[n+](Cc2ccccc2Br)c1` [QT82, 1,3-Bis-(2-bromobenzyl)imidazolium bromide], the “IC50 CHO/IC50 P. falciparum” value is reported as 89.3.
The result for `C[n+]1ccn(CCCCn2cc[n+](C)c2)c1` [QT86, 1,4-Bis-(3-methylimidazolium-1-yl)butane diiodide] reads 1.8.
With `c1ccc(Cn2cc[n+](Cc3ccccc3)c2)cc1` [QT68, 1,3-Dibenzylimidazolium bromide] the figure was 11.9.
The result for `C[n+]1ccn(CCCCCCCCn2cc[n+](C)c2)c1` [QT71, 1,8-Bis-(3-methylimidazolium-1-yl)octane diiodide] reads 96.2.
On to `Cn1c[n+](C)c(-c2ccccc2)c1-c1ccccc1` [QT104, 1,3-Dimethyl-4,5-diphenyl-1H-imidazolium iodide], for which the “IC50 CHO/IC50 P. falciparum” value amounted to 124.
The result for `Ic1ccc(Cn2cc[n+](Cc3ccc(I)cc3)c2)cc1` [QT78, 1,3-Bis-(4-iodobenzyl)imidazolium bromide] reads 94.3.
`Brc1ccc(Cn2cc[n+](Cc3ccc4ccccc4c3)c2)cc1` [QT95, 1-(4-Bromobenzyl)-3-(naphthalen-2-ylmethyl)imidazolium bromide]: the “IC50 CHO/IC50 P. falciparum” value is listed as 37.0.
The result for `C[n+]1ccn(-c2ccc(-c3ccc(-n4cc[n+](C)c4)cc3)cc2)c1` [QT98, 4,4′-Bis-(3-methyl-1H-imidazolium-1-yl)biphenyl diiodide] reads 1000.
With `O=C(Cn1cc[n+](CC(=O)c2ccc(Cl)cc2)c1)c1ccc(Cl)cc1` [QT91, 1,3-Bis-[2-oxo-2-(4-chlorophenyl)ethyl]imidazolium bromide] the figure was 20.4.
With `c1ccc(Cn2c[n+](Cc3ccccc3)c(-c3ccccc3)c2-c2ccccc2)cc1` [QT105, 1,3-dibenzyl-4,5-diphenyl-1H-imidazolium bromide] the figure was 15.
Consider `C[n+]1cn(-c2ccc(-c3ccc(-n4c[n+](C)c5ccccc54)cc3)cc2)c2ccccc21` [QT110, 4,4′-Bis-(3-methylbenzimidazolium-1-yl)biphenyl diiodide], for which the “IC50 CHO/IC50 P. falciparum” value was determined as 1400.
As to `c1ccc2cc(Cn3cc[n+](Cc4ccc5ccccc5c4)c3)ccc2c1` [QT81, 1,3-Bis-(naphthalen-2-yl-methyl)imidazolium bromide], the “IC50 CHO/IC50 P. falciparum” value is 30.0.
As to `C[n+]1ccn(CCCCCCn2cc[n+](C)c2)c1` [QT87, 1,6-Bis-(3-methylimidazolium-1-yl)hexane diiodide], the “IC50 CHO/IC50 P. falciparum” value was 56.2.
As to `O=[N+]([O-])c1ccc(C[n+]2ccn(-c3ccc(-c4ccc(-n5cc[n+](Cc6ccc([N+](=O)[O-])cc6)c5)cc4)cc3)c2)cc1` [QT103, 4,4′-Bis-[3-(4-nitrobenzyl)-1H-imidazolium-1-yl]biphenyl dibromide], the “IC50 CHO/IC50 P. falciparum” value was determined as 538.
For the molecule `C[n+]1ccn(CCCCCCCCCCCCCn2cc[n+](C)c2)c1` [QT109, 1,13-Bis-(3-methylimidazolium-1-yl)tridecane diiodide], the “IC50 CHO/IC50 P. falciparum” value was 7286.
Regarding `CCCn1cc[n+](C)c1` [QT73, 3-Methyl-1-propylimidazolium bromide], the “IC50 CHO/IC50 P. falciparum” value is recorded as 4.3.
For `C[n+]1ccn(CCCCCCCCCCCCCCCCCCCCn2cc[n+](C)c2)c1` [QT116, 1,20-Bis-(3-methylimidazolium-1-yl)eicosane diiodide], the “IC50 CHO/IC50 P. falciparum” value turned out to be 667.
Take `Fc1ccc(Cn2cc[n+](Cc3ccc(F)cc3)c2)cc1` [QT92, 1,3-Bis-(4-fluorobenzyl)imidazolium bromide]: the “IC50 CHO/IC50 P. falciparum” value is 3.3.
Turning to `Cn1cc[n+](C)c1` [QT70, 1,3-Dimethylimidazolium iodide], the “IC50 CHO/IC50 P. falciparum” value is reported as 1.6.
With `c1ccc(Cn2cc[n+](Cc3ccc4ccccc4c3)c2)cc1` [QT69, 1-Benzyl-3-(naphthalen-2-yl-methyl)imidazolium bromide] the figure was 120.0; with `O=C(Cn1cc[n+](CC(=O)c2ccc(Cc3ccccc3)cc2)c1)c1ccc(Cc2ccccc2)cc1` [QT97, 1,3-Bis-[2-oxo-2-(4-benzylphenyl)ethyl]imidazolium bromide], 9.
The result for `Clc1cccc(Cn2cc[n+](Cc3cccc(Cl)c3)c2)c1` [QT74, 1,3-Bis-(3-chlorobenzyl)imidazolium bromide] reads 101.3; that for `COc1ccc(Cn2cc[n+](Cc3ccc(OC)cc3)c2)cc1` [QT79, 1,3-Bis-(4-methoxybenzyl)imidazolium chloride], 6.1; that for `C[n+]1ccn(CCCCCCCCCCn2cc[n+](C)c2)c1` [QT88, 1,10-Bis-(3-methylimidazolium-1-yl)decane diiodide], 695.

Source of the values: patent US8632914B2, “Triazolium and imidazolium salts and uses thereof” (University Health Network, priority 2008, dated 2014).
